Experimental findings from the supplement of paper PMC10933113 are described below.

± gives the uncertainty stated by the source.

Data set [1] relates to lysine peptide Ac-RFAAKAA-COOH. The data set is described as follows: efficacy of lysine peptide change (negative = depletion) (% activity); higher = less depletion. As to conditions: incubation time: 24 h.
The subject of the next data set is THP-1. The data set is described as follows: efficacy of IL-8 induction relative to DMSO (% activity); higher = stronger induction. The note with it: exposure time: 18 h.
For data set [2], the system named is cysteine peptide Ac-RFAACAA-COOH. The data set is described as follows: efficacy of cysteine peptide change (negative = depletion) (% activity); higher = less depletion. The note with it: incubation time: 24 h.
Data set [3] concerns KeratinoSens (HaCaT ARE-luciferase) cells. Briefly: cytotoxicity AC50 (CellTiter-Fluor viability); higher = less cytotoxic. As to conditions: exposure time: 24 h.
Data set [4] has the same test system. The data set is described as follows: efficacy of ARE luciferase induction relative to DMSO (% activity over DMSO); higher = stronger induction. As to conditions: exposure time: 24 h.

For the molecule `C[CH2][Sn]([Br])([CH2]C)[CH2]C` [Triethyltin bromide], the “efficacy of lysine peptide change” value in data set [1] was 0.35 ± 9. For the same molecule, the “efficacy of IL-8 induction” value in the data set with THP-1 was determined as 14.6 ± 1.1. Also, in data set [2], the “efficacy of cysteine peptide change” value was 6.72 ± 18. The “cytotoxicity AC50” value in data set [3] amounted to 4.85 ± 0.67 µM. Moreover, in data set [4], the “efficacy of ARE luciferase induction” value was -11.8 ± 49.
